Tests used:
[1] = Stability of GI in human blood; details: 100 ng/mL, room temperature 3 h vs 0 h, LC-MS/MS, mean ± SD n = 4
[2] = Recovery of GI from human blood into plasma; details: human blood spiked 100 ng/mL, 37 °C 10 min, centrifuged 3000 rpm to separate plasma, LC-MS/MS, mean n = 4
[3] = Stability of GI QC samples in human plasma (SPE LC-MS/MS); details: for RE% (relative error vs nominal), long-term (14 days at −20 °C) / RE% (relative error vs nominal), room temperature (5.25 h) / RE% (relative error vs nominal), freeze-thaw (3-cycles) / Mean concentration founded, room temperature (5.25 h): human plasma; for RE% (relative error vs nominal), long-term (14 days at −20 °C) / RE% (relative error vs nominal), room temperature (5.25 h) / RE% (relative error vs nominal), freeze-thaw (3-cycles) / RE% (relative error vs nominal), autosampler (55 h): n = 6; for RE% (relative error vs nominal), freeze-thaw (3-cycles): three freeze (−20 °C)/thaw cycles; for Mean concentration founded, room temperature (5.25 h) / Mean concentration founded, autosampler (55 h): LC-MS/MS, mean ± SD n = 6; for RE% (relative error vs nominal), autosampler (55 h) / Mean concentration founded, autosampler (55 h): pretreated human plasma sample; for RE% (relative error vs nominal), autosampler (55 h): 4 °C autosampler 55 h; for Mean concentration founded, autosampler (55 h): 4 °C in autosampler 55 h

In the case of `C[C@@H]1NC(=O)[C@@H]2CCCN2C(=O)[C@H](CC(N)=O)NC(=O)[C@@H]2CSSC[C@@H](C(N)=O)NC(=O)[C@H](CO)NC(=O)[C@H](Cc3ccc(O)cc3)NC(=O)[C@H](Cc3c[nH]cn3)NC(=O)[C@H](CCCNC(=N)N)NC(=O)CNC(=O)[C@H](CSSC[C@H](NC(=O)[C@@H](N)CCC(=O)O)C(=O)N2)NC1=O`, the “mean ratio of GI samples at room temperature for 3 h to GI samples at 0 h” value [1] is reported as 103.54 ± 13.09%, the “relative recovery of human blood (amount of analyte in plasma / amount in blood × 100%)” value [2] is reported as 73.48% and the “RE% (relative error vs nominal), long-term (14 days at −20 °C)” value ([3]; QC1 6.0 ng/mL) is reported as 3.76%. The “RE% (relative error vs nominal), room temperature (5.25 h)” value ([3]; QC1 6.0 ng/mL) was −1.77%, the “RE% (relative error vs nominal), freeze-thaw (3-cycles)” value ([3]; QC1 6.0 ng/mL) was −7.31% and the “Mean concentration founded, room temperature (5.25 h)” value (“Mean concentration founded … (5.25 h)” below) ([3]; QC1 nominal 6.0 ng/mL) was 5.9 ± 0.4 ng/mL. For the same compound, the “RE% (relative error vs nominal), long-term (14 days at −20 °C)” value ([3]; QC2 40.0 ng/mL) was 4.95%, the “RE% (relative error vs nominal), room temperature (5.25 h)” value ([3]; QC2 40.0 ng/mL) was −10.54% and the “RE% (relative error vs nominal), freeze-thaw (3-cycles)” value ([3]; QC2 40.0 ng/mL) was −4.53%. The “Mean concentration founded … (5.25 h)” value ([3]; QC2 nominal 40.0 ng/mL) was 35.8 ± 2.5 ng/mL, the “RE% (relative error vs nominal), long-term (14 days at −20 °C)” value ([3]; QC3 225.0 ng/mL) was −1.38% and the “RE% (relative error vs nominal), room temperature (5.25 h)” value ([3]; QC3 225.0 ng/mL) was −10.87%. For the same compound, the “RE% (relative error vs nominal), freeze-thaw (3-cycles)” value ([3]; QC3 225.0 ng/mL) was −8.58%, the “Mean concentration founded … (5.25 h)” value ([3]; QC3 nominal 225.0 ng/mL) was 200.5 ± 5.6 ng/mL and the “RE% (relative error vs nominal), autosampler (55 h)” value ([3]; QC1 6.0 ng/mL) was 3.13%. The “Mean concentration founded, autosampler (55 h)” value ([3]; QC1 nominal 6.0 ng/mL) was 6.2 ± 0.6 ng/mL, the “RE% (relative error vs nominal), autosampler (55 h)” value ([3]; QC2 40.0 ng/mL) was −5.49% and the “Mean concentration founded, autosampler (55 h)” value ([3]; QC2 nominal 40.0 ng/mL) was 37.8 ± 4.3 ng/mL. For the same compound, the “RE% (relative error vs nominal), autosampler (55 h)” value ([3]; QC3 225.0 ng/mL) was −9.56% and the “Mean concentration founded, autosampler (55 h)” value ([3]; QC3 nominal 225.0 ng/mL) was 203.5 ± 15.4 ng/mL.
